In US12023336B2, “Antiviral drug compounds and composition thereof” (priority 2018, dated 2024):

Test system: HIV-1NL4.3
Details: CEM-GFP cells

MTX-d3 heptaglutamate was tested. Which “TI (Therapeutic index = CC50/IC50)” value did it give?
The value was 519.97.
